# Reference: patent US20220017572A1, “GEMINOID LIPOPEPTIDE COMPOUNDS AND THEIR USES” (Erasmus University Medical Center Rotterdam, priority 2016, published 2022)
# Protein sequences, listed by entry. Tags and fused reporters are not part of them. Residues count along the entry.
# UniProt P14340, 1476-1653 limits assumed: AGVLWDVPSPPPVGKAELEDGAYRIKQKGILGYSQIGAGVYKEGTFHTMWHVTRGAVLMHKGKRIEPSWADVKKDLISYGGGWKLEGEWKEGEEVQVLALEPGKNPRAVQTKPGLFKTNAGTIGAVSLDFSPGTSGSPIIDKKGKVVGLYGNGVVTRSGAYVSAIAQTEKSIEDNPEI
# Like-named read-outs stand apart in the source and are kept apart here.
# Molecular target: dengue 2 protease (Dengue virus type 2, UniProt P14340)
# Assay: Dengue 2 protease inhibition, hydrolysis of Z-RR-MCA
# Protocol: The active site of the dengue protease is in the N-terminal part of NS3 which is also a serine protease with catalytic triad Asp79-His51-Ser135, but requires […] (CF40) for activity; the inhibition reported here was studied on a […] (CF40-GGGGSGGGG-NS3; (SEQ ID NO:54)) which has also been structurally characterized [Erbel et al., 2006; Luo et al. 2008].
# Substrate was added in a concentration 10 times the Km, and the inhibitor compounds of type C (C16-KGnK-C16, C16-KAnK-C16, and C16-RAnR-C16) were added in increasing concentrations (1.0, 5.0, 10.0, 20.0, 40.0 μL) from a stock solution of 2 mg in 1 mL DMSO. The residual activity was measured in a Hitachi F2500 spectrofluorimeter, and plots were fitted using the Grafit® software (Erithracus Software, Horley, Surrey, UK). All the assays were calculated by the Morrison equation for competitive inhibition (eq. 1, [Morrison, 1969]). The amount of substrate used for the tight binding titration experiments follow all the requirements, where [S]<<Km for all enzymes, so the Kiapp=Ki.
# Range of Proteases Inhibited by Geminoids, Determination of Ki with Z-RR-MCA (Dengue 2 Protease) and Ac-RVRR-MCA (Furin) (SEQ ID NO:60).
# [1] = read-out: Ki Dengue 2, gemini surfactants of type B, Table 3
smiles,measurement,setting,value
CCCCCCCCCCCCCC(=O)N[C@@H](CCCCN)C(=O)NCCNC(=O)[C@H](CCCCN)NC(=O)CCCCCCCCCCCCC,Ki,[1],3.33 µM
CCCCCCCCCC(=O)N[C@@H](CCCCN)C(=O)NCCCCCCNC(=O)[C@H](CCCCN)NC(=O)CCCCCCCCC,Ki,[1],3.45 µM
CCCCCCCCCCCC(=O)N[C@@H](CCCCN)C(=O)NCCCCCCNC(=O)[C@H](CCCCN)NC(=O)CCCCCCCCCCC,Ki,[1],3.1 µM
CCCCCCCCCCCC(=O)N[C@@H](CCCCN)C(=O)NCCNC(=O)[C@H](CCCCN)NC(=O)CCCCCCCCCCC,Ki,"read-out: Ki for dengue 2 protease, text of discussion",1.3 µM
CCCCCCCC(=O)N[C@@H](CCCCN)C(=O)NCCNC(=O)[C@H](CCCCN)NC(=O)CCCCCCC,Ki,[1],4.54 µM
